Results reported in patent publication US4661502A (priority 1983, dated 1987).

Test system: male Wistar rats
Assay: Acute toxicity test
Conditions: intraperitoneal, 5 male Wistar rats; test compounds 6 mg/kg, neostigmine bromide 0.5 mg/kg

SMILES	Acute toxicity: state of the rats after administration
CN(C)C(=O)Oc1ccc[n+](COC(=O)C(C)(C)C)c1.[Cl-]	All the rats appeared normal
CN(C)C(=O)Oc1ccc[n+](COC(=O)c2ccccc2)c1.[Cl-]	All the rats appeared normal
